{"source": "ChEMBL document CHEMBL1156168", "about": "“Eastern extension of azoles as non-nucleoside inhibitors of HIV-1 reverse transcriptase; cyano group alternatives” (Bioorg Med Chem Lett, 2010)", "test_system": "MT2", "assay": "Cytotoxicity against human MT2 cells infected with HIV1 harboring reverse transcriptase K103N/Y181C mutation by MTT assay", "type": "cell-based"}
{"smiles": "N#Cc1ccc(Nc2ncc(Cc3c(F)cccc3F)o2)cc1Cl", "values": [{"measurement": "CC50", "result": 8.9, "unit": "µM"}]}
